A mixed list of measured activities; the numbers were collected in NIAID ChemDB.

All rows: tests in culture; species: Coxsackie virus; endpoint: EC50

Lines come from different laboratories, so protocols vary. Blank or dashed fields: not listed here. ECn: concentration that inhibits the pathogen or its effect by n%.

SMILES,cells,strain,read by,result
Cc1ccn2c(C3OCCS3)cnc2c1,VERO,TYPE B4,-,>1000 µM
Cc1nsc(C)c1C#N,HEP-2,TYPE B1,plaque count,>1000 µM
CC(=O)OCCOCN1C(C)=CC(N)=[N+](c2ccccc2)S1(=O)=O,HeLa,TYPE B4,-,>400 µg/mL
CSc1nsc(-c2ccncc2)c1C#N,HEP-2,TYPE B1,plaque count,>2.5 µM
OCCCCn1cc(Cn2ncc3c(NCc4ccccc4)ncnc32)nn1,VERO,B4,-,>400 µg/mL
CSc1nsc(-c2ccc(Cl)cc2Cl)c1C#N,HEP-2,TYPE B1,plaque count,>8 µM
Cc1cccn2c(C3OCCS3)cnc12,HeLa,TYPE B4,-,>1000 µM
Cc1cc(CCCCCOc2c(Cl)cc(C3=NCCO3)cc2Cl)on1,RD-2,B1,plaque count,0.03 µg/mL
Nc1ncnc2c1cnn2Cc1cn(CCCCO)nn1,VERO,B4,-,>400 µg/mL
CC(=O)OCCOCN1C(=O)C=CN(COCCO)S1(=O)=O,VERO,TYPE B4,-,>400 µg/mL
N#Cc1csnc1-c1ccccc1,HEP-2,TYPE B1,plaque count,>100 µM
CC(=O)OCCOCN1C=CC(=O)N(COCCOC(C)=O)S1(=O)=O,HeLa,TYPE B4,-,>400 µg/mL
CSc1ncnc2c1cnn2Cc1cnnn1CCCCO,VERO,B4,-,>400 µg/mL
Cc1cccn2c(C3SCCS3)cnc12,VERO,TYPE B4,-,>1000 µM
CCOC(=O)C1=CN(COCCOC(C)=O)S(=O)(=O)N=C1N,VERO,TYPE B4,-,>400 µg/mL
COc1ccc(-c2snc(SC)c2C#N)cc1,HEP-2,TYPE B1,plaque count,>10 µM

The last 2 rows once more:

{"SMILES": "CCOC(=O)C1=CN(COCCOC(C)=O)S(=O)(=O)N=C1N", "cells": "VERO", "strain": "TYPE B4", "result": ">400 µg/mL"}
{"SMILES": "COc1ccc(-c2snc(SC)c2C#N)cc1", "cells": "HEP-2", "strain": "TYPE B1", "read by": "plaque count", "result": ">10 µM"}